Measured values from several laboratories, pooled; numbers as filed in NIAID ChemDB.

Common to all: toxicity to cultured cells; cells: L6; read-out: CC50

CCn is the concentration with n% toxicity to the cells.

| compound | read by | result |
|---|---|---|
| Nc1[nH]c(N=NC(=O)c2ccccn2)c2c(Oc3ccccc3)cccc12 | - | 1289 nM |
| CCOC(=O)C1=C(O)/C(=C\c2cc(C)n(C3CCN(Cc4ccccn4)CC3)c2C)N=C1C | - | 5.9 µM |
| CN(C)c1cc[n+](Cc2ccc(CCc3ccc(-[n+]4ccc(N(C)c5ccc(Cl)cc5)cc4)cc3)cc2)cc1 | resazurin | 0.1 µg/mL |
| CCOc1ccnc(C(=O)N=Nc2[nH]c(N)c3ccccc23)c1 | - | 847 nM |
| Cc1[nH]nc2c1C(c1cc(C#N)cc(-c3ccc(C(=O)NCCCN4CCN(C)CC4)s3)c1)(C(C)C)C(C#N)=C(N)O2 | fluorescence | 94.1 µM |
| Nc1[nH]c(N=NC(=O)c2ccccn2)c2ccc3ccccc3c12 | - | 54 nM |
| CCCCOC(=O)CC[C@H](NC(=O)c1ccc(-c2cc(C#N)cc(C3(C(C)C)C(C#N)=C(N)Oc4n[nH]c(C)c43)c2)s1)C(=O)OCCCC | fluorescence | >145.2 µM |
| CCOC(=O)C1=C(O)/C(=C\c2cc(C)n(C3CCNCC3)c2C)N=C1C | - | >250 µM |
| Cn1c2nc3ccccc3c-2c(Cl)c2ccccc21 | resazurin | 1.459 µM |
| CCOC(=O)C1=C(O)/C(=C\c2cc(C)n(C3CCN(CCN4CCCCC4)CC3)c2C)N=C1C | - | 97 µM |
| Cc1[nH]nc2c1C(c1cc(C#N)cc(-c3ccc(C(=O)O)s3)c1)(C(C)C)C(C#N)=C(N)O2 | fluorescence | >224.5 µM |
| Nc1[nH]c(N=NC(=O)c2ccccn2)c2ccccc12 | - | 1368 nM |
| C=C(C)C1CC[C@]2(C(=O)O)CC[C@@]3(C)[C@]4(C)CC[C@H]5C(C)(C)[C@@H](O)CC[C@]5(C)[C@H]4CC[C@]3(C)[C@@H]12 | MTT | 10.6 µM |
| CCN(CC)S(=O)(=O)c1cccc2c(N=NC(=O)c3ccccn3)[nH]c(N)c12 | - | 31 nM |
| Cc1[nH]nc2c1C(c1cc(C#N)cc(C(F)(F)F)c1)(C(C)C)C(C#N)=C(N)O2 | fluorescence | 131.8 µM |

The last 2 rows once more:

compound	read by	result
CCN(CC)S(=O)(=O)c1cccc2c(N=NC(=O)c3ccccn3)[nH]c(N)c12	-	31 nM
Cc1[nH]nc2c1C(c1cc(C#N)cc(C(F)(F)F)c1)(C(C)C)C(C#N)=C(N)O2	fluorescence	131.8 µM

Rows are shuffled and stem from different studies. An empty or dashed field is not shown.